## Potato spindle tuber viroid, loop 6: variant abundance in plants

Values reported by Wu et al. 2024 (doi:10.1371/journal.ppat.1012142).

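A pool of all variants was put on leaves of three Nicotiana benthamiana plants. Progeny were sequenced from the inoculated region (day 5), the margin of the inoculated leaf (day 10) and systemic leaves (day 12).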

Region: loop 6 of PSTVd (intermediate strain), upper and lower strand joined, each 5' to 3', the first 5 letters being the upper strand, closing pairs included. Wild type: UGACCGCGAG. Varied positions (N): UNNNCGNNNG.

Values are reads per thousand in the sample; higher means more abundant, 0 means not found. Each site shows the three plants. "Pool" is the share in the plasmid pool used as inoculum, on the same scale. The inoculated region was read from the minus strand, the other sites from the plus strand. IR is the inoculated region, LM the leaf margin, Sys the systemic leaves.

| # | sequence | pool | IR | LM | Sys |
|---|---|---|---|---|---|
| 1 | UCGUCGCUGG | 0.170 | 0.0869 / 0.162 / 0.0922 | 0 / 0 / 0.0232 | 0 / 0 / 0 |
| 2 | UGCUCGUGAG | 0.235 | 0.139 / 0.0719 / 0.0369 | 0 / 0 / 0 | 0 / 0 / 0 |
| 3 | UCUUCGCAUG | 0.183 | 0.104 / 0.198 / 0.166 | 0 / 0 / 0 | 0 / 0 / 0 |
| 4 | UUAUCGCGUG | 0.235 | 0.226 / 0.0898 / 0.0553 | 0.0276 / 0 / 0 | 0 / 0 / 0 |
| 5 | UUCUCGCCUG | 0.366 | 0.156 / 0.108 / 0.0922 | 0.0276 / 0.0504 / 0.0232 | 0 / 0 / 0 |
| 6 | UACACGGACG | 0.118 | 0.608 / 0.647 / 0.314 | 0.166 / 0.0757 / 0 | 0 / 0.0404 / 0.0205 |
| 7 | UCUUCGCUGG | 0.196 | 0.191 / 0.108 / 0.0553 | 0 / 0 / 0 | 0 / 0 / 0 |
| 8 | UUAUCGUCCG | 0.366 | 0.174 / 0.108 / 0.0922 | 0 / 0 / 0.0232 | 0 / 0 / 0 |
| 9 | UUUCCGCUCG | 0.340 | 0.0521 / 0 / 0.0738 | 0 / 0 / 0.0928 | 0 / 0 / 0 |
| 10 | UGCGCGGAGG | 0.170 | 0.139 / 0.0898 / 0.0553 | 0 / 0 / 0.0232 | 0 / 0 / 0 |
| 11 | UCUUCGUGCG | 0.196 | 0.122 / 0.144 / 0.0369 | 0 / 0.0252 / 0.0232 | 0 / 0 / 0 |
| 12 | UUCUCGACCG | 0.170 | 0.0174 / 0.0359 / 0.0553 | 0 / 0 / 0 | 0 / 0 / 0 |
| 13 | UGGUCGCUUG | 0.301 | 0.104 / 0.198 / 0.0738 | 0 / 0 / 0.0464 | 0 / 0 / 0 |
| 14 | UAAGCGUACG | 0.458 | 0.0348 / 0.108 / 0.129 | 0 / 0 / 0.0232 | 0 / 0 / 0 |
| 15 | UUGCCGCCUG | 0.248 | 0.191 / 0.108 / 0.0922 | 0 / 0 / 0 | 0 / 0 / 0 |
| 16 | UUGACGGCAG | 0.183 | 0.0869 / 0.0898 / 0.0553 | 0 / 0 / 0 | 0 / 0 / 0 |
| 17 | UAUACGUGUG | 0.314 | 0.0521 / 0.0898 / 0.0738 | 0 / 0 / 0.0464 | 0 / 0 / 0.0205 |
| 18 | UGACCGGUGG | 0.366 | 0.382 / 0.234 / 0.314 | 0.359 / 3.35 / 0.278 | 1.17 / 0.0808 / 0.205 |
| 19 | UCUCCGCGUG | 0.170 | 0.104 / 0.126 / 0.0369 | 0.0276 / 0 / 0 | 0 / 0 / 0 |
| 20 | UCACCUGCAG | 0.0131 | 0 / 0 / 0 | 0 / 0 / 0 | 0 / 0 / 0 |
| 21 | UUGCCGAAAG | 0.209 | 0.139 / 0.108 / 0.111 | 0.0276 / 0 / 0.0464 | 0 / 0 / 0 |
| 22 | UCGGCGACUG | 0.366 | 0.0521 / 0.108 / 0.0922 | 0 / 0 / 0 | 0 / 0 / 0 |
| 23 | UUCCCGUGGG | 0.183 | 0.122 / 0.0898 / 0.0738 | 0 / 0.0252 / 0.0464 | 0 / 0 / 0 |
| 24 | UCCUCGUGGG | 0.144 | 0.0695 / 0.0719 / 0.0553 | 0 / 0 / 0 | 0 / 0 / 0 |
| 25 | UGCACGGCGG | 0.235 | 0.156 / 0.144 / 0.0553 | 0.0276 / 0 / 0 | 0 / 0 / 0 |
| 26 | UAGCCGUUAG | 0.275 | 0.156 / 0.126 / 0.0553 | 0.110 / 0.0504 / 0 | 0 / 0 / 0 |
| 27 | UGUCCGCGGG | 0.288 | 0.0869 / 0.108 / 0.111 | 0 / 0 / 0 | 0 / 0 / 0 |
| 28 | UCGCCGGCGG | 0.183 | 0.104 / 0.0898 / 0.148 | 0 / 0 / 0 | 0 / 0.0202 / 0 |
| 29 | UGCGCGGGUG | 0.222 | 0.139 / 0.0898 / 0.0369 | 0 / 0 / 0.0232 | 0 / 0 / 0 |
| 30 | UGCUCGGUGG | 0.248 | 0.156 / 0.126 / 0.0738 | 0 / 0 / 0 | 0 / 0 / 0 |
| 31 | UUAUCGUAGG | 0.301 | 0.139 / 0.0719 / 0.129 | 0.0276 / 0 / 0.0232 | 0 / 0 / 0 |
| 32 | UGUACGCAGG | 0.248 | 0.174 / 0.108 / 0.111 | 0 / 0 / 0 | 0 / 0 / 0 |
| 33 | UUCACGAGUG | 0.314 | 0.104 / 0.0359 / 0.0184 | 0 / 0 / 0 | 0 / 0 / 0 |
| 34 | UAUCCGGUUG | 0.288 | 0.104 / 0.0719 / 0.0369 | 0 / 0 / 0.0232 | 0 / 0 / 0.0205 |
| 35 | UUCCCGGAGG | 0.170 | 0.0869 / 0.0719 / 0.0369 | 0.0276 / 0 / 0 | 0 / 0 / 0 |
| 36 | UGGUCGUGGG | 0.209 | 0.139 / 0.0539 / 0.0738 | 0 / 0 / 0.0232 | 0 / 0 / 0 |
| 37 | UCUUCGGAGU | 0.0261 | 0 / 0 / 0 | 0 / 0 / 0 | 0 / 0 / 0 |
| 38 | UAAUCGGGUG | 0.275 | 0.591 / 0.844 / 0.387 | 0.0552 / 0.101 / 0.0928 | 0 / 0 / 0 |
| 39 | UUUUCGUUUG | 0.484 | 0.139 / 0.0898 / 0.0922 | 0 / 0 / 0.0232 | 0 / 0 / 0 |
| 40 | UGCCCGACUG | 0.288 | 0.139 / 0.0539 / 0.148 | 0.0276 / 0 / 0 | 0 / 0 / 0 |
| 41 | UUUUGGGAUG | 0.0131 | 0 / 0 / 0 | 0 / 0 / 0 | 0 / 0 / 0 |
| 42 | UACUCGAUAG | 0.327 | 0.104 / 0.108 / 0.111 | 0 / 0 / 0.139 | 0 / 0 / 0 |

The opening 5 entries, copied out:

sequence,pool,IR,LM,Sys
UCGUCGCUGG,0.170,0.0869 / 0.162 / 0.0922,0 / 0 / 0.0232,0 / 0 / 0
UGCUCGUGAG,0.235,0.139 / 0.0719 / 0.0369,0 / 0 / 0,0 / 0 / 0
UCUUCGCAUG,0.183,0.104 / 0.198 / 0.166,0 / 0 / 0,0 / 0 / 0
UUAUCGCGUG,0.235,0.226 / 0.0898 / 0.0553,0.0276 / 0 / 0,0 / 0 / 0
UUCUCGCCUG,0.366,0.156 / 0.108 / 0.0922,0.0276 / 0.0504 / 0.0232,0 / 0 / 0

Sequences that differ at fixed positions probably stem from PCR or sequencing errors, and defective variants can be carried along by functional ones. With 36,220-57,551 reads a sample, very low values are single reads. Wild type was 20.7 per thousand in the pool and the most common sequence in every sample (inoculated region 195, 198, 203; leaf margin 629, 591, 734; systemic leaves 942, 870, 868).